Laboratory results from patent US10987371B2 (priority 2017, dated 2021).

Tested on: EBOV-Kikwit-GFP

## O=c1c(O[C@@H]2O[C@H](CO)[C@@H](O)[C@H](O)[C@H]2O)c(-c2ccc(O)c(O)c2)oc2cc(O)cc(O)c12 [Q3G, Quercetin-3-β-O-D-glucoside]
  EC50: 5.3 µM
